A mixed list of measured activities; the numbers were collected in NIAID ChemDB.

All rows: whole-cell or culture tests; organism: Vesicular stomatitis virus; read by: cytopathic effect; endpoint: EC50

Lines come from different laboratories, so protocols vary. ECn: concentration that inhibits the pathogen or its effect by n%.

compound | cell line | value
O=c1[nH]c(=O)n(COCCO)cc1[N+](=O)[O-] | PRK | >400 µg/mL
OC[C@H]1O[C@@H](c2cncc(Br)c2)[C@@H](O)[C@@H]1O | E6SM | ≥100 µg/mL
Nc1ccn([C@@H]2OC[C@H](CO)[C@H]2O)c(=O)n1 | HeLa | >80 µg/mL
Nc1nc(=O)ccn1COCCO | PRK | >400 µg/mL
Nc1ncnc2c1ncn2[C@H]1OC[C@@H](CO)C1O | E6SM | >80 µg/mL
N#Cc1cncc([C@@H]2O[C@H](CO)[C@@H](O)[C@@H]2O)c1 | E6SM | ≥100 µg/mL
O=c1[nH]c(=O)n(COCCO)cc1I | PRK | >400 µg/mL
Cc1cn([C@H]2OC[C@@H](CO)C2F)c(=O)[nH]c1=O | HeLa | >80 µg/mL
Cc1nc2ccc(Br)cc2c(=O)n1-c1nnc(-c2cccc(Cl)c2Cl)c(N)n1 | HeLa | >16 µg/mL
Nc1ncnc2c1ncn2[C@@H]1C=C(CO)[C@@H](O)[C@H]1O | E6SM | 7 µg/mL
OC[C@H]1O[C@H](c2cncc(Br)c2)[C@@H](O)[C@@H]1O | E6SM | ≥100 µg/mL
COc1cc(Cc2cnc(-n3c(C)nc4ccc(Br)cc4c3=O)nc2N)cc(OC)c1OC | HeLa | >80 µg/mL
Nc1ccn(COCCO)c(=O)n1 | PRK | >400 µg/mL
N#Cc1cncc([C@@H]2O[C@H](CO)[C@H](O)[C@@H]2O)c1 | E6SM | ≥100 µg/mL
Nc1nc(-n2c(-c3ccccc3)nc3ccc(Br)cc3c2=O)nnc1-c1cccc(Cl)c1Cl | E6SM | >80 µg/mL

For reference, 2 entries again:

compound,cell line,value
Nc1nc(=O)ccn1COCCO,PRK,>400 µg/mL
Nc1ccn([C@@H]2OC[C@H](CO)[C@H]2O)c(=O)n1,HeLa,>80 µg/mL